Measured values published in US6858718B1, “Hydrogen production” (Melis Energy, priority 2001, dated 2005).

B1: C. reinhardtii iron hydrogenase: Fe-hydrogenase HydA from Chlamydomonas reinhardtii, mature polypeptide of 441 amino acids, SEQ. ID. NO. 5 precursor (protein)
chain: AAPAAEAPLSHVQQALAELAKPKDDPTRKHVCVQVAPAVRVAIAETLGLAPGATTPKQLAEGLRRLGFDEVFDTLFGADLTIMEEGSELLHRLTEHLEAHPHSDEPLPMFTSCCPGWIAMLEKSYPDLIPYVSSCKSPQMMLAAMVKSYLAEKKGIAPKDMVMVSIMPCTRKQSEADRDWFCVDADPTLRQLDHVITTVELGNIFKERGINLAELPEGEWDNPMGVGSGAGVLFGTTGGVMEAALRTAYELFTGTPLPRLSLSEVRGMDGIKETNITMVPAPGSKFEELLKHRAAARAEAAAHGTPGPLAWDGGAGFTSEDGRGGITLRVAVANGLGNAKKLITKMQAGEAKYDFVEIMACPAGCVGGGGQPRSTDKAITQKRQAALYNLDEKSTLRRSHENPSIRELYDTYLGEPLGHKAHELLHTHYVAGGVEEKDEKK
B2: S. obliquus iron hydrogenase: monomeric iron hydrogenase (HydA) of 44.5 kDa from Scenedesmus obliquus, SEQ. ID. NO. 4; recombinant form expressed in E. coli (protein, listed as Scenedesmus obliquus)
chain: MPEWQPGGRYAVSVRPPVNRRAVVAAERRRLVVRAAGPTAECDCPPAPAPKAPHWQQTLDELAKPKEQRKVMIAQIAPAVRVAIAETMGLNPGDVTVGQMVTGLRMLGFDYVFDTLFGADLTIMEEGTELLHRLQDHLEQHPNKEEPLPMFTSCCPGWVAMVEKSNPELIPYLSSCKSPQMMLGAVIKNYFAAEAGAKPEDICNVSVMPCVRKQGEADREWFNTTGAGGANVDHVMTTAELGKIFVERGIKLNDLQETPFDNPVGEGSGGVLFGTTGGVMEAALRTVYEVVTQKPLDRIVFEDVRGLEGIKESTLHLTPGPTSPFKAFAGADGTGITLNIAVANGLGNAKKLIKQLAAGESKYDFIEVMACPGGCIGGGGQPRSADKQILQKRQAAMYDLDERAVIRRSHENPLIGALYEKFLGEPNGHKAHELLHTHYVAGGVPDEK

What was measured:
[1] = system: iron hydrogenase from C. reinhardtii; assay: Biochemical data of purified iron hydrogenase, hydrogen evolution assay with reduced methyl viologen; parameters: species or system Chlamydomonas reinhardtii; conditions: purified enzyme
Procedure: Hydrogenase activity of C. reinhardtii was determined in vitro with reduced methyl viologen using a gas chromatograph (Hewlett Packard 5890 Å Series II, column: molecular Sieve 5 Å, Mesh 60/80). The assay, containing in a final volume of 2 mL Pipes pH 6.8 (20 mM), Na2S2O4 (20 mM), MV (5 mM), was incubated anaerobically at 25° C. for 20 min. One unit is defined as he amount of hydrogenase evolving 1 μmol H2 per minute.
Cells from a 40-L culture of C. reinhardtii were harvested by ultra filtration through an Amicon Ultrafiltration System DC 10 LA, with a hollow-fiber filter. The pellet was resuspended in 200 mL TAP medium. After anaerobic adaptation by flushing the solution with argon for 1 h in the dark, all steps were performed under strictly anaerobic conditions. The isolated Fe-hyrogenase was chemically cleaved by cyanogen brormide (CNBr). […]
To verify that the hydA ORF encodes the Fe-hydrogenase of C. reinhardtii, the enzyme was purified according to Happe and Naber (Eur. J. Biochem. 214,475-481 (1993)). […] After proteolytic digestion with cyanogen bromide, four bands of 4, 8, 9 and 11 kDa were detected after SDSIPAGE separation (data not shown). […] The heterologous expressed protein was detected using antibodies raised against the Fe-hydrogenase. […] (ibid) who also detected no H2-production of the recombinant expressed Fe-hydrogenase from Desulfovibrio vulgaris in E. coli cells. […]

[2] = system: iron hydrogenase from S. obliquus; assay: as above; parameters: species or system Scenedesmus obliquus; conditions: purified enzyme
Procedure: The in vitro hydrogenase activity was measured by using a Hewlett Packard (HP 5890, Series II) gas chromatograph, equipped with a thermal conductivity detector and a molecular sieve column. Methyl viologen reduced by sodium dithionite was used as an electron donor. 1 unit is defined as the amount of hydrogenase evolving 1 mmol of molecular hydrogen (H2) per minute at 25° C.
40-liter cultures of Scenedesmus obliquus were grown heterotrophically. After centrifugation (10 min, 5000×g) the pellet we re-suspended in 200 ml TAP medium. The cells were anaerobically adapted by flushing the solution with argon for 1 hour in the dark. All further purification steps were performed in an anaerobic chamber (Coylab, Ann Arbor, Mich., USA). The cells were disrupted in a 50 mM Tris/HCl, buffer pH 8.0, 10 mM sodium dithionite by vortexing 3 min with glass beads. The further purification steps were made as described hereinbelow for the isolation of the Fe-hydrogenase of Chlamydomonas reinhardti. Automated Edman degradation of the N-terminal site of the protein was performed with an Applied Biosystem model 477A sequencer with online analysator model 120 A.
The N-terminal sequence of HydA was determined by Edman degradation.

| Molecule | Temperature optimum [1] | pH optimum [1] | Temperature optimum [2] | pH optimum [2] |
| --- | --- | --- | --- | --- |
| B1 | 60 °C | 6.9 |  |  |
| B2 |  |  | 60 °C | 7.3 |
